Anti-infective test results gathered from many reports (values: NIAID ChemDB through PubChem).

All rows: whole-cell or culture tests; organism: HIV-1; measure: fold resistance

Blank or dashed fields: not listed here. Lines come from different laboratories, so protocols vary. a–b is a range or a potency band. Fold resistance: result on the changed form divided by that on wild type.

compound | mutations | strain | cell line | result
O=C1Nc2ccc(F)c(F)c2C(C#Cc2cccs2)(C(F)(F)F)O1 | RT-K103N |  |  | 66.6
C/C=C\COc1cc(NC(=S)OC(C)C)ccc1Cl | RT-K101E | IIIB | CEM | 8.3
O=C1Nc2ccc(Cl)cc2[C@@](/C=C/C2CC2)(C(F)(F)F)N1 | RT-K103N |  |  | 12.9
FC(F)(Sc1ncccn1)c1nc2ccccc2o1 | RT-L74V | ddI-resistant |  | >3.18
CCOCn1c(Cc2ccccc2)c(CO)c(=O)[nH]c1=O | RT-Y181C |  |  | >4.55
O=C1Nc2ccc(F)c(F)c2C(C#Cc2ccccn2)(C(F)(F)F)O1 | RT-K103N |  |  | 15.6
CCc1c(C(=O)c2cc(C)cc(C)c2)n(Cc2ccncc2)c(=O)[nH]c1=O | RT-Y181C | NNRTI-resistant (RT Y181C) | MT-4 | 1.43–5.86
CCCc1c(OC2CCCC2)c2cc(C#N)ccc2[nH]c1=O | RT-Y181C | Nevirapine-resistant (RT Y181C) | MT-4 | 28.8
CCc1c(C(=O)c2cc(C)cc(C)c2)n(CC2CC=CC2)c(=O)[nH]c1=O | RT-E6E/K V106I Y181C F227L | IIIB-SJ-3366 P21 (RT-E6E/K V106I Y181C F227L) |  | >33000
O=C1CC(C#CC2CC2)(C(F)(F)F)c2cc(Cl)ccc2N1 | RT-K103N |  |  | 12.64
Nc1ncnc2c1ncn2[C@@H]1O[C@H](CO)C=C1F | M184V |  | MT-2 | 1.2
CC(C)Cc1c(OCC2CCC2)c2cnccc2[nH]c1=O | RT-Y181C | Nevirapine-resistant (RT Y181C) | MT-4 | 4.71
O=C1Nc2ccc(Cl)cc2[C@@](/C=C/C2CC2)(C(F)(F)F)N1 | RT-Y188C |  |  | <6
CCOCn1c(Cc2ccccc2)c(I)c(=O)[nH]c1=O | RT-Y181C |  |  | 476
O=C1Nc2ccc(F)c(F)c2C(C#Cc2ccco2)(C(F)(F)F)O1 | RT-K103N |  |  | 125
CCOCn1c(Cc2ccccc2)c(C#N)c(=O)n(COCC)c1=O | RT-Y181C |  |  | >1
CCCc1c(OC2CCCC2)c2ccccc2[nH]c1=O | RT-Y181C | Nevirapine-resistant (RT Y181C) | MT-4 | 12
CCCOC1(C(F)(F)F)OC(=O)Nc2ccc(Cl)cc21 | RT-K103N |  |  | 128
O=C1Nc2ccc(F)c(F)c2[C@@](C#CC2CC2)(C(F)(F)F)N1 | RT-V106A |  |  | <13.3
N#Cc1cc(Cl)cc(Oc2c(Br)ccc(CC(=O)Nc3ccc(S(N)(=O)=O)cc3Cl)c2F)c1 | V106A |  | MT-4 | 1

For reference, 3 entries again:

compound | mutations | strain | cell line | result
O=C1Nc2ccc(F)c(F)c2C(C#Cc2ccccn2)(C(F)(F)F)O1 | RT-K103N |  |  | 15.6
CCOCn1c(Cc2ccccc2)c(C#N)c(=O)n(COCC)c1=O | RT-Y181C |  |  | >1
C/C=C\COc1cc(NC(=S)OC(C)C)ccc1Cl | RT-K101E | IIIB | CEM | 8.3